Test results: PubChem BioAssay AID577 (University of Pittsburgh Molecular Library Screening Center, 2007)
The list shows a part of the results, in another mix than the full data. Activity calls are given as the source filed them. Cut-off read from the data, not from the text of the source: active = z-score below about -3; inactive = the rest.

The chains behind the UniProt entries cited, without tags or fusion partners. Residues count along the entry.
UniProt P06935, 1371-1501 limits assumed: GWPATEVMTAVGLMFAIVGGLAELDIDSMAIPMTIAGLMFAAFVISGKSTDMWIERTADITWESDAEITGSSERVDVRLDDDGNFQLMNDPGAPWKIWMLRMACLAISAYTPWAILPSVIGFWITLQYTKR
UniProt P06935, 1502-1679 limits assumed: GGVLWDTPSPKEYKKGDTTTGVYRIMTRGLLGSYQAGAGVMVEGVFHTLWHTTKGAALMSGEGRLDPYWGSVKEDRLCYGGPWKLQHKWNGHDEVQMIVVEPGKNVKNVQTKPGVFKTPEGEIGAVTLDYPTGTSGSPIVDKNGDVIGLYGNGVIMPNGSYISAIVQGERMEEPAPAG

These compounds were tested against Genome polyprotein (West Nile virus) (UniProt P06935) (assay: West Nile NS2B-NS3 proteinase blockers – biochemical, fluorogenic substrate, primary screen (AID 577)). Conditions: WNV NS2B-NS3 protease, fluorogenic substrate Ex360/Em465; hits give low values.

SMILES | z-score
COc1ccc(NC2CCN(CCc3ccccc3)CC2)c(OC)c1 | inactive: 0.02
O=C(OC1CN2CCC1CC2)C1c2ccccc2Oc2ccccc21 (configuration not stated) | inactive: 0.8
N#CC1(Nc2ccccc2)CCN(CCc2ccccc2)CC1 | inactive: -0.9
N/C(=N\O)c1c(N)no[n+]1[O-] | inactive: -0.34
CCC(CO)(C(=O)OC1CN2CCC1CC2)c1ccccc1 (configuration not stated) | inactive: -0.09
CCOc1ncccc1C(=O)NCC1(N2CCOCC2)CCCCC1 | inactive: 0.41
Fc1ccccc1NC1CCN(Cc2ccccc2)CC1 | inactive: 0.76
